Source: patent US6417178B1, “Amyloid binding nitrogen-linked compounds for the antemortem diagnosis of alzheimer's disease, in vivo imaging and prevention of amyloid deposits” (University of Pittsburgh, priority 1994, dated 2002)

Tested on: amyloid deposits in AD brain sections
Experiment: Histologic staining of amyloid in AD brain sections
Set-up: species or system human
Conditions: Stokes and Trickey or Puchtler method, FITC filters

SMILES	staining of amyloid deposits
O=C(O)c1cc(N=Nc2ccc(-c3ccc(N=Nc4ccc(O)c(C(=O)O)c4)cc3)cc2)ccc1O [Chrysamine G, 4,4′-bis(3-carboxy-4-hydroxyphenylazo)-biphenyl]	two neuritic plaques stained; also recorded: readily demonstrate the same amyloid-laden vessel
Nc1c(/N=N/c2ccc(-c3ccc(/N=N/c4cc(S(=O)(=O)O)c5ccccc5c4N)cc3)cc2)cc(S(=O)(=O)O)c2ccccc12 [Congo red, reference compound]	readily demonstrate the same amyloid-laden vessel

“Also recorded” adds a separate entry of the source.
